Compound potency records, mixed from different reports. Data source: NIAID ChemDB in PubChem.

All rows: growth or infection tests; agent: Candida albicans; endpoint: MIC90

MIC50, MIC90 and the like: level of inhibition, or share of isolates inhibited. Conditions beyond the fields shown may differ between rows. Two numbers with a dash give a range or band. An empty or dashed field is not shown.

| smiles | strain | result |
|---|---|---|
| CN(C/C=C/C#CC(C)(C)C)Cc1cccc2ccccc12 | CI_4 | 8 µg/mL |
| C=C(c1ccccc1OCc1cccc(Cl)c1)n1ccnc1 | 106 isolates | 2 µg/mL |
| C=CC(C)(O)CCCC=C(C)C | - | 0.025–0.031 µg/mL |
| CCC(C)n1ncn(-c2ccc(N3CCN(c4ccc(OC[C@H]5CO[C@](Cn6cncn6)(c6ccc(Cl)cc6Cl)O5)cc4)CC3)cc2)c1=O | ATCC 10231 | >16 µg/mL |
| Clc1ccc(CSC(Cn2ccnc2)c2ccc(Cl)cc2Cl)cc1 | 106 isolates | 1 µg/mL |
| Cc1nn([C@H](C)[C@](O)(Cn2cncn2)c2ccc(F)cc2F)c2ccc([N+](=O)[O-])cc12 | ATCC 32033 | ≤0.031 µg/mL |
| Nc1nc(=O)n([C@H]2CS[C@@H](CO)O2)cc1F | 206 isolates | 4 µg/mL |
| COc1cc(/C=C/C=O)cc(OC)c1O | Clinical isolates | 62.5–125 µg/mL |
| Clc1ccc(COC(Cn2ccnc2)c2ccc(Cl)cc2Cl)c(Cl)c1 | 106 isolates | 16 µg/mL |
| C[C@H]1[C@H](O)[C@@H](C)/C=C/C=C/C=C/C=C/C=C/C=C/C=C/[C@H](O[C@@H]2O[C@H](C)[C@@H](O)[C@H](N)[C@@H]2O)C[C@@H]2O[C@](O)(C[C@@H](O)C[C@@H](O)CC[C@H](O)[C@@H](O)C[C@@H](O)CC(=O)O[C@H]1C)C[C@H](O)[C@H]2C(=O)O | - | 0.5–1 µg/mL |
| C[C@H](CCC1NC1(C)C)[C@H]1CC[C@]2(C)C3CC=C4C(C)(C)C(O)CC[C@]4(C)C3CC[C@]12C | ATCC 10231 | >16 µg/mL |
| C[C@H]1[C@H](O)[C@@H](C)/C=C/C=C/C=C/C=C/C=C/C=C/C=C/[C@H](O[C@@H]2O[C@H](C)[C@@H](O)[C@H](N)[C@@H]2O)C[C@@H]2O[C@](O)(C[C@@H](O)C[C@@H](O)CC[C@H](O)[C@@H](O)C[C@@H](O)CC(=O)O[C@H]1C)C[C@H](O)[C@H]2C(=O)O | 206 isolates | 1 µg/mL |
| CCCCCOc1ccc(-c2ccc(-c3ccc(C(=O)N[C@H]4C[C@@H](O)[C@@H](O)NC(=O)[C@@H]5[C@@H](O)[C@@H](C)CN5C(=O)[C@H]([C@H](C)O)NC(=O)[C@H]([C@H](O)[C@@H](O)c5ccc(O)cc5)NC(=O)[C@@H]5C[C@@H](O)CN5C(=O)[C@H]([C@H](C)O)NC4=O)cc3)cc2)cc1 | - | 0.015 µg/mL |
| CC(C)(C)[C@](O)(COc1ccc(Cl)cc1)Cn1cncn1 | - | 0.0007 µg/mL |
| C[C@H]1[C@H](O)[C@@H](C)/C=C/C=C/C=C/C=C/C=C/C=C/C=C/[C@H](O[C@@H]2O[C@H](C)[C@@H](O)[C@H](N)[C@@H]2O)C[C@@H]2O[C@](O)(C[C@@H](O)C[C@@H](O)CC[C@H](O)[C@@H](O)C[C@@H](O)CC(=O)O[C@H]1C)C[C@H](O)[C@H]2C(=O)O | 85 strains (fluconazole-resistant) | 2 µg/mL |
| CCC(C)n1ncn(-c2ccc(N3CCN(c4ccc(OC[C@H]5CO[C@](Cn6cncn6)(c6ccc(Cl)cc6Cl)O5)cc4)CC3)cc2)c1=O | - | 0.016–0.06 µg/mL |

Repeating the first 2 entries:

smiles	strain	result
CN(C/C=C/C#CC(C)(C)C)Cc1cccc2ccccc12	CI_4	8 µg/mL
C=C(c1ccccc1OCc1cccc(Cl)c1)n1ccnc1	106 isolates	2 µg/mL